Measurements: PMC6753678, “Fueling Open Innovation for Malaria Transmission-Blocking Drugs: Hundreds of Molecules Targeting Early Parasite Mosquito Stages” (Frontiers in Microbiology, 2019)

Experiments:
[1] = test system: P. falciparum female gametocytes; test: P. falciparum female gametogenesis assay (Pf FGAA)
[2] = test system: P. falciparum late stage (stages IV-V) gametocytes; test: P. falciparum late stage gametocyte ATP depletion assay (Pf GC-ATP)
[3] = unified cytotox over Pf FGAA IC50, red: <10-fold selectivity, green: >10-fold
[4] = unified cytotox over Pf GC-ATP IC50, red: <10-fold selectivity, green: >10-fold
[5] = unified cytotox / IC50, <10-fold red, >10-fold green

CC(C)(C)c1ccc(CN2CCC(CNC(=O)c3cc(-c4cccc(C(F)(F)F)c4)cs3)C2)cc1.O=C(O)C(F)(F)F (centres unmarked) [TCMDC-134442]
Assay tox ratio Pf FGAA [1, 3]: 5.96 | Assay tox ratio Pf GC-ATP [2, 4]: 13.44

C[C@H](Cc1ccc(OCCCCCOc2ccc(C[C@@H](C)NC[C@H](O)c3cccc(Cl)c3)cc2)cc1)NC[C@H](O)c1cccc(Cl)c1.Cl [TCMDC-131563]
Assay tox ratio Pf FGAA [1, 3]: 2.03 | Assay tox ratio Pf GC-ATP [2, 4]: 3.55

FC(F)(F)c1ccc2[nH]c(-c3ccc(-c4cccc(CNCCN5CCNCC5)c4)cc3)nc2c1.O=C(O)C(F)(F)F [TCMDC-132864]
Assay tox ratio Pf FGAA [1, 3]: 8.69 | Assay tox ratio Pf GC-ATP [2, 4]: 13.80

Cc1oc(-c2ccc(Cl)cc2)cc1C(=O)NCCC1CCN(CCCCCNC(=O)/C=C/c2ccc(Cl)c(Cl)c2)CC1 [TCMDC-140009]
Assay tox ratio Pf FGAA [1, 3]: 2.02 | Assay tox ratio Pf GC-ATP [2, 4]: 0.68

Cc1cccc2nc(-c3ccc(-c4ccc(CNCc5ccc(CN)cc5)cc4)s3)[nH]c12.O=C(O)C(F)(F)F [TCMDC-132809]
Assay tox ratio Pf FGAA [1, 3]: 41.64 | Assay tox ratio Pf GC-ATP [2, 4]: 22.68

Br.C/C=C/C=C/C1=NCCc2cc(OCCC)ccc21 [TCMDC-137442]
Assay tox ratio Pf FGAA [1, 3]: 14.37 | Assay tox ratio Pf GC-ATP [2, 4]: 24.97

CCN(CC)CCCn1c(N)c(-c2nc3ccccc3[nH]2)c2nc(C#N)c(C#N)nc21 [TCMDC-123680]
Assay tox ratio Pf FGAA [1, 3]: 8.80 | Assay tox ratio Pf GC-ATP [2, 4]: 46.31

CNC(=S)NN=C(C)c1ccccn1 [TCMDC-123475]
Assay tox ratio Pf FGAA [1, 3]: 1788.22 | Assay tox ratio Pf GC-ATP [2, 4]: 21.37

CN1CCN(CCNc2c3ccccc3nc3c2ccc2ccccc23)CC1.Cl [TCMDC-137723]
Assay tox ratio Pf FGAA [1, 3]: 1.67 | Assay tox ratio Pf GC-ATP [2, 4]: 15.09

CCOc1ccc2nc3cc(NC(=O)c4ccco4)ccc3c(N)c2c1 [TCMDC-125004]
Assay tox ratio Pf FGAA [1, 3]: 3.90 | Assay tox ratio Pf GC-ATP [2, 4]: 95.80

CCn1c(-c2nonc2N)nc2c(-c3cc4ccccc4s3)ncc(C(=O)N3CCC(N)C3)c21.O=C(O)C(F)(F)F (centres unmarked) [TCMDC-135281]
Assay tox ratio Pf FGAA [1, 3]: 5.02 | Assay tox ratio Pf GC-ATP [2, 4]: 6.43

COc1ccc(CCNCCCCCCNCCc2ccc(Cl)cc2)c(Cl)c1OC.Cl [TCMDC-131272]
Assay tox ratio Pf FGAA [1, 3]: 7.09 | Assay tox ratio Pf GC-ATP [2, 4]: 22.86

CCCCOc1c(CCNCCCCNCCc2cc(OC)c3ccccc3c2OCCCC)cc(OC)c2ccccc12.CS(=O)(=O)O [TCMDC-137848]
Assay tox ratio Pf FGAA [1, 5]: 4.14 | Assay tox ratio Pf GC-ATP [2, 5]: 31.70

CN1CCN(CCCN(Cc2cccc(-c3ccc(CNCCc4ccccc4)cc3)c2)C(=O)c2cccs2)CC1.O=C(O)C(F)(F)F [TCMDC-140568]
Assay tox ratio Pf FGAA [1, 3]: 3.39 | Assay tox ratio Pf GC-ATP [2, 4]: 6.50

CS(=O)(=O)O.CSc1ccc2ccccc2c1CCNCCCCNCCc1c(SC)ccc2ccccc12 [TCMDC-137763]
Assay tox ratio Pf FGAA [1, 3]: 1.71 | Assay tox ratio Pf GC-ATP [2, 4]: 7.54

COc1ccc2cc(CNCCCCCCNCc3ccc4cc(OC)ccc4c3)ccc2c1.CS(=O)(=O)O [TCMDC-137797]
Assay tox ratio Pf FGAA [1, 3]: 3.88 | Assay tox ratio Pf GC-ATP [2, 4]: 3.39

Cc1ccccc1OCC(O)CNC1CCC(NCC(O)COc2ccccc2C)CC1 (centres unmarked) [TCMDC-125142]
Assay tox ratio Pf FGAA [1, 3]: 3.53 | Assay tox ratio Pf GC-ATP [2, 4]: 27.36

COc1cc(-c2cc(-c3ccc(S(C)(=O)=O)cc3)cnc2N)ccc1O [TCMDC-133343]
Assay tox ratio Pf FGAA [1, 3]: 126.34 | Assay tox ratio Pf GC-ATP [2, 4]: 39.91

CCOc1cc(CNCCCCCCNCc2cc(OCC)c(OCC)c3ccccc23)c2ccccc2c1OCC.CS(=O)(=O)O [TCMDC-137939]
Assay tox ratio Pf FGAA [1, 5]: 1.32 | Assay tox ratio Pf GC-ATP [2, 5]: 3.15

CCOc1ccccc1CCNC(C)Cc1ccc(C(=O)Nc2ccc(CC(C)NCCc3cccc(Cl)c3)cc2)cc1 (centres unmarked) [TCMDC-139805]
Assay tox ratio Pf FGAA [1, 3]: 2.42 | Assay tox ratio Pf GC-ATP [2, 4]: 5.49

Cc1occc1C(=O)Nc1nc(-c2ccccn2)nc2ccsc12 [TCMDC-135244]
Assay tox ratio Pf FGAA [1, 3]: 14.00 | Assay tox ratio Pf GC-ATP [2, 4]: 2.87

Br.Oc1ccc(CCNCCCCCCNCCc2ccc(Cl)c3ccccc23)cc1O [TCMDC-131271]
Assay tox ratio Pf FGAA [1, 3]: 5.19 | Assay tox ratio Pf GC-ATP [2, 4]: 23.18
